Laboratory results published in ChEMBL document CHEMBL4321818, “Anti-biofilm Agents against Pseudomonas aeruginosa: A Structure-Activity Relationship Study of C-Glycosidic LecB Inhibitors” (J Med Chem, 2019).

biological target: Fucose-binding lectin PA-IIL (Pseudomonas aeruginosa (strain ATCC 15692 / DSM 22644 / CIP 104116 / JCM14847 / LMG 12228 / 1C / PRS 101 / PAO1), UniProt Q9HYN5); assay: Inhibition of N-(fluorescein-5-yl)-N'-(alpha-L-fucopyranosyl ethylen)thiocarbamide binding to Pseudomonas aeruginosa PA14 LecB incubated for 22 to 24 hrs by fluorescence polarization assay

First: C[C@@H]1O[C@H](CNS(=O)(=O)c2ccc(C#CC(C)(C)O)s2)[C@@H](O)[C@H](O)[C@@H]1O
Second: C[C@@H]1O[C@H](CNS(=O)(=O)c2ccc(C#Cc3ccccc3)s2)[C@@H](O)[C@H](O)[C@@H]1O
The IC50 of the first is 2.2-fold higher: 0.31 µM for the first, 0.14 µM for the second. The second is the more potent here.

`C[C@@H]1O[C@H](CNC(=O)c2cc3ccccc3[nH]2)[C@@H](O)[C@H](O)[C@@H]1O` gave an IC50 of 3.57 µM.
